Assay results reported in PMC5056392, “CD4-mimetic sulfopeptide conjugates display sub-nanomolar anti-HIV-1 activity and protect macaques against a SHIV162P3 vaginal challenge” (Scientific Reports, 2016).

What was measured:
[1] = test system: HIV-1 Bal; type: cell-based; conditions: B-R5, TZM-bl cells, 48 h
Procedure: (§1) The IC50 of the various mCD4-conjugates were measured in TZM-bl cells (NIH AIDS Reagent Program, Germantown, MD 20874, US). This cell line expresses high densities of CD4, CCR5 and CXCR4. It contains a luciferase reporter gene under control of HIV LTR, which will be transcribed and translated into luciferase protein, if the cells get infected with HIV and start producing Tat. Briefly, 50 μl of TZM-bl cells (1 × 10^5 cells/mL) supplemented with 30 μg/mL DEAE dextran were incubated with a 50 μl of a 10-fold serial dilution of the compounds under investigation in 96-well flat bottom plates, prior to inoculation with 50 μl of various viruses (see Tables & and 2; 50, 100 or 200 TCID50 was used depending on the virus). As a positive control, 50 μl of compound-free medium was used and as a negative control, 100 μl of medium was added to 100 μl of TZM-bl cells. All conditions were done in triplicates. The plates were incubated for 48 hours (37 °C, 5% CO2). Subsequently, 120 μL of supernatants were removed, 75 μl of the luciferase substrate Steadylite (Perkin Elmer, Life Sciences, Zaventem, Belgium) were added to the wells and the plates were incubated at room temperature on an orbital shaker for 10 minutes. Next, the luciferase activity was measured using a TriStar LB941 luminometer (Berthold Technologies GmbH & Co. KG., Bad Wildbad, Germany) and expressed in relative light units (RLU) as a percentage of positive control wells. IC50 were calculated in GraphPad Prism 5.03 using non-linear regression (GraphPad Software, San Diego, CA, USA).

[2] = test system: HIV-1 IIIB; type: cell-based; conditions: B-X4, TZM-bl cells, 48 h
Procedure: as §1

[3] = test system: HIV-1 Ca10-3 (CRF01); type: cell-based; conditions: AE-X4, TZM-bl cells, 48 h
Procedure: as §1

[4] = test system: HIV-1 MN; type: cell-based; conditions: B-X4, TZM-bl cells, 48 h
Procedure: as §1

[5] = test system: HIV-1 MP568 (CRF02); type: cell-based; conditions: AG-R5, TZM-bl cells, 48 h
Procedure: as §1

[6] = test system: HIV-1 SF162; type: cell-based; conditions: B-R5, TZM-bl cells, 48 h
Procedure: as §1

[7] = test system: HIV-1 VI1888 (CRF01); type: cell-based; conditions: AE-R5, TZM-bl cells, 48 h
Procedure: as §1

[8] = test system: HIV-1 VI820; type: cell-based; conditions: A-X4R5, TZM-bl cells, 48 h
Procedure: as §1

[9] = test system: HIV-1 VI824; type: cell-based; conditions: D-R5, TZM-bl cells, 48 h
Procedure: as §1

[10] = test system: HIV-1 VI829; type: cell-based; conditions: C-R5, TZM-bl cells, 48 h
Procedure: as §1

[11] = test system: HIV-1 p246F10; type: cell-based; conditions: T/F C-R5, TZM-bl cells, 48 h
Procedure: as §1

[12] = test system: HIV-1 pREJO.c/2864 cl2; type: cell-based; conditions: T/F B-R5, TZM-bl cells, 48 h
Procedure: as §1

[13] = test system: HIV-1 pTHRO.c/2626; type: cell-based; conditions: T/F B-R5, TZM-bl cells, 48 h
Procedure: as §1

[14] = test system: HIV-1 pWITO.c/2474; type: cell-based; conditions: T/F B-R5, TZM-bl cells, 48 h
Procedure: as §1

[15] = test system: HIV-1 pZM247Fv2; type: cell-based; conditions: T/F C-R5, TZM-bl cells, 48 h
Procedure: as §1

[16] = test system: SHIV162P3; type: cell-based, SHIV; conditions: B-R5, TZM-bl cells, 48 h
Procedure: as §1

[17] = test system: TZM-bl cells; assay: WST-1 cytotoxicity assay; type: cell-based; conditions: WST-1, 48 h
Procedure: The water soluble tetrazolium-1 (WST-1) cell proliferation assay is based on the cleavage of the tetrazolium salt WST-1 to a formazan dye by a complex cellular mechanism. Because this bioreduction is dependent on the glycolytic production of NAD(P)H in viable cells, the amount of formazan dye formed is correlates directly to the number of viable cells in a culture. Quantification is done by measuring absorbance at 450 nm in a multiwell plate reader. TZMbl cells (10^4 cells/well) were plated in a 96-well plate and a serial dilution of compound was added. 48 h later, cell proliferation reagent was added and cell viability was measured compared to untreated control cultures. Cell viability was plotted against the compound concentration and non-linear regression analysis was performed to calculate the 50% cytotoxic concentration (CC50).

[18] = test system: HIV-1 NL4.3; type: cell-based; conditions: primary CD4 T cells infected with NL4.3, co-culture with autologous target cells, Gag+ targets by flow cytometry
Procedure: Primary CD4^+ T cells were purified from human peripheral blood by positive selection (Miltenyi). About 98% of cells were CD4^+CD3^+. For activation, primary T cells were treated with PHA (1 μg/ml) for 24 h and then cultured with IL-2 (50 IU/ml) for 3–5 days before use. Primary cells were infected with HIV-1 NL4-3 and NLAD8 as described. Donor cells were used a few days later, when about 20% of the cells were Gag^+. Target cells were labeled with FarRed (2.5 μM; Molecular Probes). Donors were preincubated 1 h with the indicated doses of compounds. Donor and target cells were then mixed at a 1:2 ratio in 96-well plates at a final a concentration of 1.5 × 10^6/ml in 200 μl, in duplicates. After 48 or 72 h, cells were stained for intracellular Gag (KC57 mAb, Coulter) and analyzed by flow cytometry. When used, mCD4 or mCD4-conjugates were added 1 h before coculture. Measurement of the levels of Env epitopes at the surface of infected cells with 3BNC117 was performed by flow cytometry as previously described.

[19] = Table 2, 10^-3 MOI, mean of at least 2 independent experiments, triplicates
[20] = 48 h, read-out: IC50 (nM) 48h, cell-cell transmission
[21] = 72 h, read-out: IC50 (nM) 72h, cell-cell transmission
[22] = Table 1, luciferase, means of two experiments

CC(C)C[C@@H]1NC(=O)CNC(=O)[C@H](CC(C)C)NC(=O)[C@H](CO)NC(=O)[C@H](CCCCNC(=O)CCOCCOCCNC(=O)CCN2C(=O)CC(SCCC(=O)NCCCC(=O)N[C@@H](CO)C(=O)N[C@@H](Cc3ccc(OS(=O)(=O)O)cc3)C(=O)N[C@@H](CC(=O)O)C(=O)N[C@@H](Cc3ccc(OS(=O)(=O)O)cc3)C(=O)N[C@@H](CO)C(=O)N[C@@H](Cc3ccc(OS(=O)(=O)O)cc3)C(=O)N[C@@H](CC(=O)O)C(=O)N[C@@H](Cc3ccc(OS(=O)(=O)O)cc3)C(=O)N[C@@H](CO)C(=O)N[C@@H](Cc3ccc(OS(=O)(=O)O)cc3)C(=O)N[C@@H](CC(=O)O)C(=O)N[C@@H](Cc3ccc(OS(=O)(=O)O)cc3)C(=O)N[C@@H](CO)C(=O)O)C2=O)NC(=O)[C@@H]2CSSC[C@@H](C(=O)N[C@H](C(N)=O)C(C)C)NC(=O)[C@H](C)NC(=O)[C@@H]3CSSC[C@H](NC(=O)[C@H](Cc4ccccc4)NC(=O)[C@H](Cc4c[nH]cn4)NC(=O)[C@H](CC(C)C)NC(=O)[C@H](CC(N)=O)NC(=O)CCSSC[C@H](NC(=O)[C@H](CCCNC(=N)N)NC(=O)CNC(=O)[C@H](CC(C)C)NC1=O)C(=O)N[C@@H](C)C(=O)N1CCC[C@@H]1C(=O)N[C@@H]([C@@H](C)O)C(=O)N[C@@H](Cc1ccc(OCC4CCCCC4)cc1)C(=O)N3)C(=O)N[C@@H](CCC(N)=O)C(=O)N[C@@H](CC(C)C)C(=O)N[C@@H](CCCNC(=N)N)C(=O)N2 (stereo partly shown) [M48U1-PS1]
IC50 ([1]; Supplementary Table SI): 0.13 nM | IC50 ([2]; Supplementary Table SI): 0.02 nM

CC(C)C[C@@H]1NC(=O)CNC(=O)[C@H](CC(C)C)NC(=O)[C@H](CO)NC(=O)[C@H](CCCNC(=N)N)NC(=O)[C@@H]2CSSC[C@@H](C(=O)N[C@H](C(N)=O)C(C)C)NC(=O)[C@H](C)NC(=O)[C@@H]3CSSC[C@H](NC(=O)[C@H](CCCCNC(=O)CCOCCOCCNC(=O)CCN4C(=O)CC(SCCC(=O)NCCCC(=O)N[C@@H](CO)C(=O)N[C@@H](Cc5ccc(OS(=O)(=O)O)cc5)C(=O)N[C@@H](CC(=O)O)C(=O)N[C@@H](Cc5ccc(OS(=O)(=O)O)cc5)C(=O)N[C@@H](CO)C(=O)N[C@@H](Cc5ccc(OS(=O)(=O)O)cc5)C(=O)N[C@@H](CC(=O)O)C(=O)N[C@@H](Cc5ccc(OS(=O)(=O)O)cc5)C(=O)N[C@@H](CO)C(=O)N[C@@H](Cc5ccc(OS(=O)(=O)O)cc5)C(=O)N[C@@H](CC(=O)O)C(=O)N[C@@H](Cc5ccc(OS(=O)(=O)O)cc5)C(=O)N[C@@H](CO)C(=O)O)C4=O)NC(=O)[C@H](Cc4c[nH]cn4)NC(=O)[C@H](CC(C)C)NC(=O)[C@H](CC(N)=O)NC(=O)CCSSC[C@H](NC(=O)[C@H](CCCNC(=N)N)NC(=O)CNC(=O)[C@H](CC(C)C)NC1=O)C(=O)N[C@@H](C)C(=O)N1CCC[C@@H]1C(=O)N[C@@H]([C@@H](C)O)C(=O)N[C@@H](Cc1ccc(OCC4CCCCC4)cc1)C(=O)N3)C(=O)N[C@@H](CCC(N)=O)C(=O)N[C@@H](CC(C)C)C(=O)N[C@@H](CCCNC(=N)N)C(=O)N2 (stereo partly shown) [mCD4.3-PS1]
IC50 [1, 19]: 0.031 nM | IC50 [3, 19]: 0.076 nM | IC50 [2, 19]: 0.0025 nM | IC50 [4, 19]: 0.026 nM | IC50 [5, 19]: 4.2 nM | IC50 [6, 19]: 0.0075 nM | IC50 [7, 19]: 1210 nM | IC50 [8, 19]: 0.024 nM | IC50 [9, 19]: 0.7 nM | IC50 [10, 19]: 3.6 nM | IC50 [11, 19]: 33 nM | IC50 [12, 19]: 0.28 nM | IC50 [13, 19]: 6.4 nM | IC50 [14, 19]: 1.5 nM | IC50 [15, 19]: 192 nM | IC50 [16, 19]: 1.4 nM | CC50 ([17]; Table 2, 50% cytotoxic concentration): >50000 nM | IC50 [18, 20]: 0.2 nM | IC50 [18, 21]: 0.3 nM

CC(C)C[C@@H]1NC(=O)CNC(=O)[C@H](CC(C)C)NC(=O)[C@H](CO)NC(=O)[C@H](CO)NC(=O)[C@@H]2CSSC[C@@H](C(=O)N[C@H](C(N)=O)C(C)C)NC(=O)[C@H](C)NC(=O)[C@@H]3CSSC[C@H](NC(=O)[C@H](CCCCN)NC(=O)[C@H](Cc4c[nH]cn4)NC(=O)[C@H](CC(C)C)NC(=O)[C@H](CC(N)=O)NC(=O)CCSSC[C@H](NC(=O)[C@H](CCCNC(=N)N)NC(=O)CNC(=O)[C@H](CC(C)C)NC1=O)C(=O)N[C@@H](C)C(=O)NCC(=O)N[C@@H](CO)C(=O)N[C@@H](Cc1ccc(-c4ccccc4)cc1)C(=O)N3)C(=O)N[C@@H](CCC(N)=O)C(=O)N[C@@H](CC(C)C)C(=O)N[C@@H](CCCNC(=N)N)C(=O)N2 [mCD4.1]
IC50 [1, 22]: 237 nM | IC50 [3, 22]: 96 nM | IC50 [2, 22]: 29 nM | IC50 [4, 22]: 20 nM | IC50 [5, 22]: 7930 nM | IC50 [6, 22]: 130 nM | IC50 [7, 22]: > 10000 nM | IC50 [8, 22]: 1690 nM | IC50 [9, 22]: 3180 nM | IC50 [10, 22]: > 10000 nM | IC50 [11, 22]: > 10000 nM | IC50 [12, 22]: 108 nM | IC50 [13, 22]: 1180 nM | IC50 [14, 22]: 1120 nM | IC50 [15, 22]: > 10000 nM | IC50 [16, 22]: 5370 nM | CC50 ([17]; Table 1, 50% cytotoxic concentration): 45525 nM | IC50 [18, 20]: 91.5 nM | IC50 [18, 21]: 59.6 nM

Like-named read-outs stand apart in the source and are kept apart here.
